For the assay, the target named is ΔCR PrP (Mus musculus, UniProt P04925, DEL105-125). Description: SPR binding to ΔCR PrP. Particulars: 17,000 RU ΔCR PrP amine coupled; Langmuir fit. (In general: SPR reads the build-up and loss of mass on a sensor chip optically.)

Chains of the proteins cited; added tags and fusions are not shown. A line that says so, or that is headed by a name, gives the form on record, which may keep a tag or linker.
UniProt P04925, with tags, fused parts or gaps DEL105-125 limits assumed: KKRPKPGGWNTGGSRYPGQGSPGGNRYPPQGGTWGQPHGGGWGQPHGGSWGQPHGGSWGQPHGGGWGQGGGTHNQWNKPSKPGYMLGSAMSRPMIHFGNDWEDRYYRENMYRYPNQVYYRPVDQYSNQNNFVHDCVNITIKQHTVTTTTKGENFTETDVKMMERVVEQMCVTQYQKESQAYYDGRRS

In turn, `NC(=S)NN=C1C(O)C(O)C(O)C(O)C1O` [DS26, 2-(2R,3S,5R,6S-pentahydroxycyclohexylidene)hydrazinecarbothioamide] returned a dissociation constant (Kd) of 900 nM.

A word on the Kd: it is the free concentration of one partner at which half of the binding sites on the other are occupied at equilibrium, for simple one-to-one binding. A high value points to lower affinity.

The values above are taken from patent US10391068B2 (priority 2012, dated 2019).
